From ChEMBL document CHEMBL1649477, “Trypanothione reductase high-throughput screening campaign identifies novel classes of inhibitors with antiparasitic activity” (Antimicrob Agents Chemother, 2009) come the findings set out here.

The chains behind the UniProt entries cited, without tags or fusion partners.
UniProt P28593, whole entry: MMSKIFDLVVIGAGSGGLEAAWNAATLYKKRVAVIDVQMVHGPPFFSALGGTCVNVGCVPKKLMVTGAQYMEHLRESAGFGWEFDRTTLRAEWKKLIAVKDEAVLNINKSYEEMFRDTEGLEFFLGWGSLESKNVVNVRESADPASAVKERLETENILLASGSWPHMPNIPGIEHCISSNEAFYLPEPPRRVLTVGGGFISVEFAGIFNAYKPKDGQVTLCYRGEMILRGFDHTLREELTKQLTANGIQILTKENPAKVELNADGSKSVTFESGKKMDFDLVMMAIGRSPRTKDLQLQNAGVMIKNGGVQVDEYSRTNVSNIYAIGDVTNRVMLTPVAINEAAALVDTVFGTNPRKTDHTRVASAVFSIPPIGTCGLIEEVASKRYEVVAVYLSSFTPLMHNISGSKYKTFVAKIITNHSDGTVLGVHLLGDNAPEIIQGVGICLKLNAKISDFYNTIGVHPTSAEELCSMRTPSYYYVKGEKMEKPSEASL

Assay [1] concerns Trypanosoma brucei rhodesiense. In words: Antitrypanosomal activity against Trypanosoma brucei rhodesiense STIB900 bloodstream forms.
For assay [2], the system named is Leishmania donovani. As to the kind of experiment: Antiprotozoal activity against Leishmania donovani MHOM/ET/67/L82 amastigotes. It is filed as functional, organism-based.
The test system of assay [3] is Plasmodium falciparum. In words: Antiplasmodial activity against Plasmodium falciparum 3D7 erythrocytic stage. The format is functional, organism-based.
Assay [4] addresses Trypanothione reductase (Trypanosoma cruzi, UniProt P28593). In words: Inhibition of Trypanosoma cruzi X10/1 trypanothione reductase assessed as inhibition of thionitrobenzoate formation by microplate reader analysis.
The subject of assay [5] is Trypanosoma cruzi. As to the kind of experiment: Antiprotozoal activity against Trypanosoma cruzi Tulahuen C2C4 amastigotes. The format is functional, organism-based.

In general, IC50 refers to the midpoint of a concentration-inhibition curve.

Take `CC(=O)OC1(C#N)CN2CCC1CC2` (stereo not given): the IC50 in assay [1] was 0.9 µM; in assay [2], greater than 30 µM; in assay [3] it was 3 µM; in assay [4] it was 52 µM; in assay [5], 19 µM.
